Results as given in US20210324082A1.

Columns and labels:
[1] = molecular target: human PD-L1 (CD274), human, Q9NZQ7 19-290; experiment: binding to human PD-L1
[2] = molecular target: human PD-L1 (CD274), human, Q9NZQ7 19-290; experiment: flow cytometry cell binding; row printed as "Binding Kd EC50"
[3] = molecular target: human PD-L1 (CD274), human, Q9NZQ7 19-290; experiment: membrane proteome array, 5,300 human proteins expressed on HEK-293T cells

Row | Substance | Kd [1] [µg/mL] | EC50 [2] [µg/mL] | result [3]
1 | DI-SLTA-1::scFva::C1::C1 | 0.29 | 0.293 | 
2 | DI-SLTA-1::scFva::C1 |  |  | binds
3 | DI-SLTA-1::scFvb::C1 |  | 0.115 | 
